In patent US9181234B2, “Antibacterial compounds” (priority 2010, dated 2015):
The match of structure and compound is tentative.

The chains behind the UniProt entries cited, without tags or fusion partners.
UniProt P0A0K8, whole entry: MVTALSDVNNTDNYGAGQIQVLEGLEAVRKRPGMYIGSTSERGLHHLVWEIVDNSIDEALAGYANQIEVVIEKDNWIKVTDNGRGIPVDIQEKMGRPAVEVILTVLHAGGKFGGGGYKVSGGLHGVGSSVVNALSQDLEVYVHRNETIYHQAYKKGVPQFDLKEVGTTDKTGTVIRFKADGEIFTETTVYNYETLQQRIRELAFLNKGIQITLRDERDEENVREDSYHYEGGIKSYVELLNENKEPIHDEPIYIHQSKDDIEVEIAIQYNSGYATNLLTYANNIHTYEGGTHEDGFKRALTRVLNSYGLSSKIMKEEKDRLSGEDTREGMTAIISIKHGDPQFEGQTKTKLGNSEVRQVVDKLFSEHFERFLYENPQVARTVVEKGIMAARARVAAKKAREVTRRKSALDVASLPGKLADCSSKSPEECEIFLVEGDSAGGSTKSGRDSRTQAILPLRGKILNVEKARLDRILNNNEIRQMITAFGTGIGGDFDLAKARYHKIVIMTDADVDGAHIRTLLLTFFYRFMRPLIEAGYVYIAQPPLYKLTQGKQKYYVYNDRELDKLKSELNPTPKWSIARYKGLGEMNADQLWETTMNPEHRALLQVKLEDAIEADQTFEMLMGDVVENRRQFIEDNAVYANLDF

Key:
[1] = system: Enterococcus faecalis (Isolate ID ATCC 29212); experiment: Antibacterial activity, MIC, E. faecalis; format: cell-based; details: Gram positive strain; broth microdilution or agar dilution
Experimental: (§1) Bacterial Assay: Determination of Antibacterial Activity
(§2) Compounds of the invention were tested for antimicrobial activity by susceptibility testing in liquid or on solid media. MICs for compounds against each strain were determined by the broth microdilution or agar dilution method according to the guidelines of the Clinical Laboratories and Standards Institute, formerly the National Committee for Clinical Laboratory Standards (Clinical Laboratories and Standards Institute. Methods for Dilution Antimicrobial Susceptibility Tests for Bacteria That Grow Aerobically; Approved Standard—Seventh Edition. Document M7-A7. CLSI, Wayne, Pa., 2006; Clinical Laboratories and Standards Institute. The gram positive bacterial strains tested include S. aureus (Staphylococcus aureus (Isolate ID ATCC 29213)), E. faecalis (Enterococcus faecalis (Isolate ID ATCC 29212)) and S. pyogenes (Streptococcus pyogenes (Isolate ID ATCC 51339)). The gram negative bacterial strains tested include H. influenzae (Haemophilus influenzae (Isolate ID ATCC 49247))

[2] = target: Gyrase enzyme (A2B2 complex from Staphylococcus aureus) (UniProt P0A0K8); experiment: Gyrase ATPase assay (S. aureus enzyme); details: enzyme source (S. aureus or E. coli) not given; 1 mM ATP, 30° C., 60 minutes
Experimental: On-Target Enzyme Assay: Determination of Gyrase ATPase Activity
Gyrase converts ATP into ADP and inorganic phosphate. The released phosphate can be detected by the addition of malachite green solution and measured by monitoring the increase in absorbance at 600 nm. The ATPase assay is carried out in a buffer containing 2 mU/μl Gyrase enzyme (A2B2 complex from Staphylococcus aureus), 0.08 mg/ml double-stranded DNA, 8 mM HEPES.KOH pH 7.6, 100 mM K glutamate, 2 mM Mg acetate, 2 mM DTT, 0.01 mg/ml BSA, and 5% DMSO solution containing the inhibitor. Alternatively, the ATPase assay is carried out in a buffer containing 4.8 μg/mL Gyrase enzyme (A2B2 complex from Escherichia coli), 0.08 μg/mL ssDNA, 35 mM Tris pH 7.5, 24 mM KCl, 2 mM MgCl2, 6.5% Glycerol, 2 mM DTT, 1.8 mM Spermidine, 0.5 mg/mL BSA and 5% DMSO solution containing the inhibitor. The reaction is started by adding ATP to a final concentration of 1 mM and allowed to incubate at 30° C. for 60 minutes. The reaction is stopped by adding […] of malachite green solution (0.034% malachite green, 10 mM ammonium molybdate, 1 M HCl, 3.4% ethanol, 0.01% tween 20). Colour is allowed to develop for 5 minutes and the absorbance at 600 nm is measured spectrophotometrically. The IC50 values are determined from the absorbance readings using no compound and no enzyme controls.

[3] = system: Streptococcus pyogenes (Isolate ID ATCC 51339); experiment: Antibacterial activity, MIC, S. pyogenes; format: cell-based; details: Gram positive strain; broth microdilution or agar dilution
Experimental: as §1, §2

[4] = system: Haemophilus influenzae (Isolate ID ATCC 49247); experiment: Antibacterial activity, MIC, H. influenzae; format: cell-based; details: Gram negative strain; broth microdilution or agar dilution
Experimental: as §1, §2

[5] = system: Staphylococcus aureus (Isolate ID ATCC 29213); experiment: Antibacterial activity, MIC, S. aureus; format: cell-based; details: Gram positive strain; broth microdilution or agar dilution
Experimental: as §1, §2

## CCNC(=O)Nc1nc2cc(-c3cnc(N4CCC(C)(C(=O)OCC)CC4)nc3)cc(C3CCN(C(C)=O)CC3)c2s1 [Compound 178]
[1]
  Antibacterial Activity (MIC) E. faecalis (ATCC 29212): C (“C” activity >1.0 μg/mL-16 μg/mL)
[2]
  Gyrase ATPase activity (IC50): 0.6 µg/mL
[3]
  Antibacterial Activity (MIC) S. pyogenes (ATCC 51339): C (“C” activity >1.0 μg/mL-16 μg/mL)
[4]
  Antibacterial Activity (MIC) H. influenzae (ATCC 49247): D (“D” activity >16 μg/mL)
[5]
  Antibacterial Activity (MIC) S. aureus (ATCC 29213): D (“D” activity >16 μg/mL)
